## Library screen at single concentrations

Measurements from “University of Dundee, Small-Polar-MMV Screening Library” (2021), ChEMBL document CHEMBL3988442.

Values are the deposited “Percent Effect”, in %.
The controls that fix the scale are not given in the record; negative values are as filed.
Many other results are left out here, so strong results are more common than in the screen.

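Phenotypic screen: M. tuberculosis growth, glucose 7H9 medium, 3 days; the read-out is not stated. Concentration: 500 µM. Direction is inferred from retests: higher values go with more growth inhibition. Size under these conditions: about 18,000 compounds, about 1,400 of them at 50% or above in at least one test.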

compound: CCNC(=O)c1cc2ccc(OC)cc2[nH]1
Percent Effect: 53.23%

compound: Cn1cc(C(=O)NC2CCCOc3ccccc32)nn1 (configuration not stated)
Percent Effect: 9.146%

compound: CCS(=O)(=O)NCCNC(=O)C1(C)CCCC1
Percent Effect: 14.25%

compound: COc1ccccc1CCNC(=O)CN
Percent Effect: 13.35%

compound: CCC(CC#N)NCc1cccnc1C (configuration not stated)
Percent Effect: -1.293%

compound: NC(C(=O)N1CCOC2(CCC2)C1)c1ccccc1 (configuration not stated)
Percent Effect: -16.42%

compound: COc1cccc(NC(CN)c2ccccc2)c1 (configuration not stated)
Percent Effect: 69.75%

compound: CC(C)N(C(=O)CSc1nnc[nH]1)C(C)C
Percent Effect: -0.857%

compound: Cn1cc(C(C)(O)CN)cn1 (configuration not stated)
Percent Effect: -11.07%

compound: CCOc1ccc2c(c1)C=C(C(=O)NC)CO2
Percent Effect: 61.77%

compound: CC(C)n1cc(CN)nn1
Percent Effect: 3.961%

compound: COC(=O)c1ccn2cncc2c1
Percent Effect: -13.24%

compound: CSCC(=O)NCC1(CN2CCOCC2)CCCCC1
Percent Effect: -1.018%

compound: COC(=O)c1oc(CN2CCC(CO)CC2)cc1C
Percent Effect: -6.487%

compound: O=C(NCCOc1ccc2c(c1)OCO2)C1CCCO1 (configuration not stated)
Percent Effect: 41.59%

compound: CCc1ncc(C2NCCc3[nH]cnc32)cn1 (configuration not stated)
Percent Effect: 9.033%

compound: NCCS(=O)(=O)NCC1CCC1
Percent Effect: 14.6%

compound: CC(C)c1cccc(NC(=O)CN2CCC(O)CC2)c1
Percent Effect: 66.47%

compound: CS(=O)(=O)N1CCCC(NC(=O)NC2CC2)C1 (configuration not stated)
Percent Effect: 11.1%

compound: COCC(N)Cc1ccccc1 (configuration not stated)
Percent Effect: 3.795%

compound: CN(CCCOc1cccc(Cl)c1)CC(N)=O
Percent Effect: 21%

compound: Cc1nc(NCc2n[nH]c(=O)[nH]2)cc(C2CC(O)C2)n1 (configuration not stated)
Percent Effect: -3.883%

compound: Nc1c[nH]nc1C(=O)NCc1cccc(Cl)c1
Percent Effect: 21.02%

compound: CC(C)NC(=O)c1nnn(-c2cccc(Br)c2)c1N
Percent Effect: -2.211%

compound: Cc1cnc(N2CCC(O)CC2)c(Br)c1
Percent Effect: 63.61%

compound: O=C(CNc1cccc(C(F)(F)F)c1)N1CCNC1=O
Percent Effect: 12.58%

compound: CNCCCNC(=O)CCc1ccsc1
Percent Effect: 7.075%

compound: COC(=O)c1sc(N2CCCCC2)nc1N
Percent Effect: -11.25%

compound: C/N=C1\SC(CC(=O)Nc2cccc(Cl)c2)C(=O)N1C (configuration not stated)
Percent Effect: -13.46%

compound: O=C(NC1=NCCS1)c1cc(Br)c[nH]1
Percent Effect: 25.36%

compound: COCCCNC(=O)c1ccc(Cn2cncn2)cc1
Percent Effect: 16.83%

compound: OCC1CSc2ccccc2O1 (configuration not stated)
Percent Effect: 19.05%

compound: CN(C)CCNC(=O)c1ccc2c(c1)NC(=O)CO2
Percent Effect: 7.48%

compound: CC(C)[C@H](N)C(=O)N1CCN(c2ccncc2Cl)CC1
Percent Effect: 7.387%

compound: CCC1CCCCN1C(=O)CN(CC(N)=O)C(C)C (configuration not stated)
Percent Effect: 4.032%

compound: NC(=O)C1CNc2ccccc21 (configuration not stated)
Percent Effect: 1.623%

compound: Cc1csc(C(C)NC(=O)NCCCO)n1 (configuration not stated)
Percent Effect: -14.17%

compound: COc1ccc2nc(CCN)[nH]c2c1
Percent Effect: 13.23%

compound: CCOc1ccc(C(C)=O)cc1CN1CCCC1
Percent Effect: 62.74%